Like-named read-outs stand apart in the source and are kept apart here.
How the values were obtained:
A. californica AChBP [1] = biological target: T1, A. californica AChBP (Aplysia californica, UniProt Q8WSF8)
A. californica AChBP [2] = biological target: T1, A. californica AChBP; conditions: read-out: IC50 in competition with [125I]-αBgt; cited from earlier work
L. stagnalis AChBP = L. stagnalis AChBP (Lymnaea stagnalis, UniProt P58154)
A. californica AChBP [3] = biological target: T1, A. californica AChBP; remark: listed apart in the source
human α7 nAChR [4] = biological target: T2, human α7 nAChR (Homo sapiens, UniProt P36544)
human α7 nAChR [5] = biological target: T2, human α7 nAChR; test: Competition radioligand assay with [125I]-PnIA[L5R, A10L, D14R], human α7 nAChR in GH4C1 cells; conditions: read-out: IC50 in competition with [125I]-PnIA[L5R, A10L, D14R], mean ± s.e.m., n = 3, radioligand 180 nM

Chains of the proteins cited; added tags and fusions are not shown. Residues count along the entry.
UniProt Q8WSF8, 18-236 limits assumed: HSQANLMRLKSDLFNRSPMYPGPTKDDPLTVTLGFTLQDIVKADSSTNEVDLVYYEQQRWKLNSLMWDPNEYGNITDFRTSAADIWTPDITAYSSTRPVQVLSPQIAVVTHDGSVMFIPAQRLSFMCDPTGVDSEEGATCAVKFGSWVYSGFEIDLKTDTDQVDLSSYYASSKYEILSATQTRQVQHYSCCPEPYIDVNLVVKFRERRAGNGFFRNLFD
UniProt P58154, 20-229 limits assumed: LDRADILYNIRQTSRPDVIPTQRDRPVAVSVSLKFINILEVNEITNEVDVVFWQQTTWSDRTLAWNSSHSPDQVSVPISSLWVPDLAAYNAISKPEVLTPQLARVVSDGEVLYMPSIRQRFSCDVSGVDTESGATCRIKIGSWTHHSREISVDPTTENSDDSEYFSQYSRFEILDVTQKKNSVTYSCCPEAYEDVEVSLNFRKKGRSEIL
UniProt P36544, 23-502 limits assumed: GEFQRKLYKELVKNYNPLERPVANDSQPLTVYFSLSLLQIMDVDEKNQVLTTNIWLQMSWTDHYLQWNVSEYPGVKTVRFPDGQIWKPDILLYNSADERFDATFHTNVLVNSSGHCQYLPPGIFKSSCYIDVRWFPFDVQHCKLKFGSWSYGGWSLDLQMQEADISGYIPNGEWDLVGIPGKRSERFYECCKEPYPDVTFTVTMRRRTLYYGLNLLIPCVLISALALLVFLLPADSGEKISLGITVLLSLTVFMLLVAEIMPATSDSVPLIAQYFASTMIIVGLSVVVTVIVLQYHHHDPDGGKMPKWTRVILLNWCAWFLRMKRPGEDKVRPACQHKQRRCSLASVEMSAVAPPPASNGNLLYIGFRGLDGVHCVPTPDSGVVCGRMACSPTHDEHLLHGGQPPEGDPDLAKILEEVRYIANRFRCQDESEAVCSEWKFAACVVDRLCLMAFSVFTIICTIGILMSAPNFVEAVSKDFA

Row | Compound | IC50 (A. californica AChBP [1]) [µM] | IC50 (A. californica AChBP [2]) [µM] | IC50 (L. stagnalis AChBP) [µM] | IC50 (A. californica AChBP [3]) [µM] | IC50 (human α7 nAChR [4]) [µM] | IC50 (human α7 nAChR [5]) [µM]
1 | C[C@@H]1NC(=O)[C@@H]2CCCN2C(=O)[C@H](CC(N)=O)NC(=O)[C@@H]2CSSC[C@@H](C(N)=O)NC(=O)[C@H](CO)NC(=O)[C@H](Cc3ccc(O)cc3)NC(=O)[C@H](Cc3c[nH]cn3)NC(=O)[C@H](CCCNC(=N)N)NC(=O)CNC(=O)[C@H](CSSC[C@H](NC(=O)[C@@H](N)CCC(=O)O)C(=O)N2)NC1=O | > 1 | 25.5 | – | – | – | –
2 | C[C@@H]1NC(=O)[C@@H]2CSSC[C@H](NC(=O)CN)C(=O)N[C@@H](CSSC[C@@H](C(N)=O)NC(=O)[C@H](CCCNC(=N)N)NC(=O)[C@H](Cc3c[nH]c4ccccc34)NC1=O)C(=O)N[C@@H](CO)C(=O)N[C@@H](CC(=O)O)C(=O)N1CCC[C@H]1C(=O)N[C@@H](CCCNC(=N)N)C(=O)N2 | 0.00084 | 0.033 | – | – | – | –
3 | CC(C)C[C@@H]1NC(=O)[C@H](C)NC(=O)[C@@H]2CSSC[C@H](NC(=O)CN)C(=O)N[C@@H](CSSC[C@@H](C(N)=O)NC(=O)[C@H](Cc3ccc(O)cc3)NC(=O)[C@H](CCCNC(=N)N)NC(=O)[C@@H]3CCCN3C(=O)[C@H](CC(N)=O)NC(=O)[C@H](CC(N)=O)NC1=O)C(=O)N[C@@H](CO)C(=O)N[C@@H](CC(=O)O)C(=O)N1CCC[C@H]1C(=O)N[C@@H](CCCNC(=N)N)C(=O)N2 | – | – | 1.2 | 0.046 | 23 | –
4 | CC(C)C[C@@H]1NC(=O)[C@H](C)NC(=O)[C@@H]2CSSC[C@H](NC(=O)CN)C(=O)N[C@@H](CSSC[C@@H](C(N)=O)NC(=O)[C@H](Cc3ccc(O)cc3)NC(=O)[C@H](CC(=O)O)NC(=O)[C@@H]3CCCN3C(=O)[C@H](CC(N)=O)NC(=O)[C@H](CC(N)=O)NC1=O)C(=O)N[C@@H](CO)C(=O)N[C@@H](CCCNC(=N)N)C(=O)N1CCC[C@H]1C(=O)N[C@@H](CC(=O)O)C(=O)N2 | – | – | 56 | 28 | > 100 | –
5 | CC(C)C[C@@H]1NC(=O)[C@H](C)NC(=O)[C@@H]2CSSC[C@H](NC(=O)CN)C(=O)N[C@@H](CSSC[C@@H](C(N)=O)NC(=O)[C@H](Cc3ccc(O)cc3)NC(=O)[C@H](CC(=O)O)NC(=O)[C@@H]3CCCN3C(=O)[C@H](CC(N)=O)NC(=O)[C@H](CC(N)=O)NC1=O)C(=O)N[C@@H](CO)C(=O)N[C@@H](CC(C)C)C(=O)N1CCC[C@H]1C(=O)N[C@@H](CCCNC(=N)N)C(=O)N2 | – | – | > 100 | 1.25 | > 100 | –
6 | CC(C)C[C@@H]1NC(=O)[C@H](C)NC(=O)[C@@H]2CSSC[C@H](NC(=O)CN)C(=O)N[C@@H](CSSC[C@@H](C(N)=O)NC(=O)[C@H](Cc3ccc(O)cc3)NC(=O)[C@H](CCCNC(=N)N)NC(=O)[C@@H]3CCCN3C(=O)[C@H](CC(N)=O)NC(=O)[C@H](CC(N)=O)NC1=O)C(=O)N[C@@H](CO)C(=O)N[C@@H](CCCNC(=N)N)C(=O)N1CCC[C@H]1C(=O)N1CCC[C@H]1C(=O)N2 | – | – | 0.43 | 1.4 | 0.67 | 0.06
7 | CC(C)C[C@@H]1NC(=O)[C@H](C)NC(=O)[C@@H]2CSSC[C@H](NC(=O)CN)C(=O)N[C@@H](CSSC[C@@H](C(N)=O)NC(=O)[C@H](Cc3c[nH]c4ccccc34)NC(=O)[C@H](CCCNC(=N)N)NC(=O)[C@@H]3CCCN3C(=O)[C@H](CC(N)=O)NC(=O)[C@H](CC(N)=O)NC1=O)C(=O)N[C@@H](CO)C(=O)N[C@@H](Cc1ccc(O)cc1)C(=O)N[C@@H](CCCNC(=N)N)C(=O)N[C@@H](CCCNC(=N)N)C(=O)N2 | – | – | 10 | 20 | 19 | –
8 | CC(C)[C@@H]1NC(=O)[C@H](C)NC(=O)[C@@H]2CSSC[C@H](NC(=O)CN)C(=O)N[C@@H](CSSC[C@@H](C(N)=O)NC(=O)[C@H](Cc3ccc(O)cc3)NC(=O)[C@H](CC(=O)O)NC(=O)[C@@H]3CCCN3C(=O)[C@H](CC(N)=O)NC(=O)[C@H](CC(N)=O)NC1=O)C(=O)N[C@@H](CO)C(=O)N[C@@H](CC(=O)O)C(=O)N1CCC[C@H]1C(=O)N[C@@H](CCCNC(=N)N)C(=O)N2 | – | – | 6.4 | 0.045 | > 100 | –
9 | CC(C)C[C@@H]1NC(=O)[C@H](C)NC(=O)[C@@H]2CSSC[C@H](NC(=O)CN)C(=O)N[C@@H](CSSC[C@@H](C(N)=O)NC(=O)[C@H](Cc3ccc(O)cc3)NC(=O)[C@H](CC(=O)O)NC(=O)[C@@H]3CCCN3C(=O)[C@H](CC(N)=O)NC(=O)[C@H](CC(N)=O)NC1=O)C(=O)N[C@@H](CO)C(=O)N[C@@H](CC(C)C)C(=O)N1CCC[C@H]1C(=O)N[C@@H](CC(=O)O)C(=O)N2 | – | – | > 100 | 63 | > 100 | –
10 | CC(C)C[C@@H]1NC(=O)[C@H](C)NC(=O)[C@@H]2CSSC[C@H](NC(=O)CN)C(=O)N[C@@H](CSSC[C@@H](C(N)=O)NC(=O)[C@H](Cc3ccc(O)cc3)NC(=O)[C@H](CCCNC(=N)N)NC(=O)[C@@H]3CCCN3C(=O)[C@H](CC(N)=O)NC(=O)[C@H](CC(N)=O)NC1=O)C(=O)N[C@@H](CO)C(=O)N[C@@H](CCCNC(=N)N)C(=O)N1CCC[C@H]1C(=O)N[C@@H](CC(=O)O)C(=O)N2 | – | – | 4.1 | 3.2 | 72 | –
11 | C[C@@H]1NC(=O)[C@H](C)NC(=O)[C@@H]2CSSC[C@H](NC(=O)CN)C(=O)N[C@@H](CSSC[C@@H](C(N)=O)NC(=O)[C@H](Cc3ccc(O)cc3)NC(=O)[C@H](CC(=O)O)NC(=O)[C@@H]3CCCN3C(=O)[C@H](CC(N)=O)NC(=O)[C@H](CC(N)=O)NC1=O)C(=O)N[C@@H](CO)C(=O)N[C@@H](Cc1c[nH]cn1)C(=O)N1CCC[C@H]1C(=O)N1CCC[C@H]1C(=O)N2 | – | – | 0.22 | – | 26 | –
12 | CC(C)C[C@@H]1NC(=O)[C@H](C)NC(=O)[C@@H]2CSSC[C@H](NC(=O)CN)C(=O)N[C@@H](CSSC[C@@H](C(N)=O)NC(=O)[C@H](Cc3ccc(O)cc3)NC(=O)[C@H](CC(=O)O)NC(=O)[C@@H]3CCCN3C(=O)[C@H](CC(N)=O)NC(=O)[C@H](CC(N)=O)NC1=O)C(=O)N[C@@H](CO)C(=O)N[C@@H](CC(=O)O)C(=O)N1CCC[C@H]1C(=O)N1CCC[C@H]1C(=O)N2 | – | – | 35 | 5.2 | > 100 | –
13 | CC(C)C[C@@H]1NC(=O)[C@H](C)NC(=O)[C@@H]2CSSC[C@H](NC(=O)CN)C(=O)N[C@@H](CSSC[C@@H](C(N)=O)NC(=O)[C@H](Cc3ccc(O)cc3)NC(=O)[C@H](CCCCN)NC(=O)[C@@H]3CCCN3C(=O)[C@H](CC(N)=O)NC(=O)[C@H](CC(N)=O)NC1=O)C(=O)N[C@@H](CO)C(=O)N[C@@H](CC(C)C)C(=O)N1CCC[C@H]1C(=O)N1CCC[C@H]1C(=O)N2 | – | – | 0.0082 | – | 7.2 | 1.8
14 | CC(C)C[C@@H]1NC(=O)[C@H](C)NC(=O)[C@@H]2CSSC[C@H](NC(=O)CN)C(=O)N[C@@H](CSSC[C@@H](C(N)=O)NC(=O)[C@H](Cc3ccc(O)cc3)NC(=O)[C@H](CC(=O)O)NC(=O)[C@@H]3CCCN3C(=O)[C@H](CC(N)=O)NC(=O)[C@H](CC(N)=O)NC1=O)C(=O)N[C@@H](CO)C(=O)N[C@@H](CC(=O)O)C(=O)N1CCC[C@H]1C(=O)N[C@@H](CCCNC(=N)N)C(=O)N2 | – | – | 38 | 0.051 | > 100 | –
15 | C[C@@H]1NC(=O)[C@H](C)NC(=O)[C@@H]2CSSC[C@H](NC(=O)CN)C(=O)N[C@@H](CSSC[C@@H](C(N)=O)NC(=O)[C@H](Cc3ccc(O)cc3)NC(=O)[C@H](CCCNC(=N)N)NC(=O)[C@@H]3CCCN3C(=O)[C@H](CC(N)=O)NC(=O)[C@H](CC(N)=O)NC1=O)C(=O)N[C@@H](CO)C(=O)N[C@@H](Cc1c[nH]cn1)C(=O)N1CCC[C@H]1C(=O)N1CCC[C@H]1C(=O)N2 | – | – | 2.9 | 1.4 | 21 | –
16 | CC(C)C[C@@H]1NC(=O)[C@H](C)NC(=O)[C@@H]2CSSC[C@H](NC(=O)CN)C(=O)N[C@@H](CSSC[C@@H](C(N)=O)NC(=O)[C@H](Cc3ccc(O)cc3)NC(=O)[C@H](CC(=O)O)NC(=O)[C@@H]3CCCN3C(=O)[C@H](CC(N)=O)NC(=O)[C@H](CC(N)=O)NC1=O)C(=O)N[C@@H](CO)C(=O)N[C@@H](CCCNC(=N)N)C(=O)N1CCC[C@H]1C(=O)N1CCC[C@H]1C(=O)N2 | – | – | 0.18 | 0.305 | 12 | –
